# Results: publication PMC5783950, “Shielding and activation of a viral membrane fusion protein” (2018)
# Target: Rift Valley fever virus Gn-Gc heterodimer (on the virion) (Rift Valley fever virus (Clone 13))
# Test: cryo-EM structure
substance,measurement,value
Rift Valley fever virus Gn-Gc heterodimer (on the virion) (complex),stoichiometry N,5 and 6

# “And” between values parts separate entries of the source, which are not always exact repeats. Identical values can stand only once.
